For this data set, the system named is human MT-2 T-cells. To be noted: Table 4; 50% inhibition of MT-2 cell growth.

`Cc1cc(C#N)cc(C)c1Oc1nc(Nc2ccc(C#N)cc2)nc(N)c1Br` [etravirine, reference compound] registered a CC50 of 11 µM.

The values above are taken from US9382245B2, “Compounds and methods for treating HIV infections” (priority 2013, dated 2016).
